Some entries of the source have several records that differ or are many. Only these are listed. An entry can have further records. Values given together do not match, cause unknown; they may come from other doses, times, organisms or constructs than stated.
Experiment: metabolic stability, Human Clint

## Cc1c(C2(c3ccc(C(F)(F)F)nc3)CC2)c[nH]c1C(=O)NC(C)c1cc(C(N)=O)[nH]n1 (single isomer, unassigned)
  Human Clint: particularly metabolically stable and <7 μL/min/mg protein

Reference: patent US11903936B2, “Anti-malarial agents” (THE BOARD OF REGENTS OF THE UNIVERSITY OF TEXAS SYSTEM, priority 2019, dated 2024)
